Measured data: PubChem BioAssay AID504761 (Drosophila RNAi Screening Center, 2011)

Assay: 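Fly genes whose silencing reduces dengue virus type 2 infection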 (primary screen)
Cell system: D.Mel-2 cells from Drosophila
Reagent: long dsRNA against Drosophila genes
Conditions: infection with dengue virus type 2; dose and infection time not stated
Measured: 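Per well on two replicate plates, imaging gave the percent of cells positive for viral envelope protein, ranked by infection, and a nuclear count of cells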
Scale: infection score: higher = more virus-infected cells; cell count: higher = more cells in the well
Call rule: 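Low infection ranks in the two replicates (chance level up to 0.065) followed by a retest with a 1.5-fold or larger significant decrease, p below 0.05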
Meaning of the calls: active = confirmed: knock-down lowers infection; inactive = not picked or not confirmed
In all, the deposit lists about 22,000 reagents; this is an unselected part of those with a known target gene and a result. Over the whole deposit, 116 (0.52%) were called active. 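Calls depend on retest data that are not deposited; infection was ranked per plate without normalising between plates; the unit of the infection score is not given.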 The raw values are shown without normalisation. Entries without a mark were called inactive. Further read-outs or replicates are left out here. Reagent sequences are not shown. Not given: the amount of reagent, the time to read-out.

Knock-down of CG18628 (GeneID 39205) [DRSC10328] resulted in: infection score, replicate 1 = 1.58; cell count, replicate 1 = 5516.
For CG13075 (GeneID 39756) [DRSC09958], the entry reads infection score, replicate 1 = 1.84; cell count, replicate 1 = 6141.
After knock-down of CG13075 (GeneID 39756) [DRSC28458], the screen gave infection score, replicate 1 = 6.99; cell count, replicate 1 = 4466.
Against Nrt (GeneID 39873) [DRSC11237] the deposit lists infection score, replicate 1 = 2.82; cell count, replicate 1 = 6985.
For mRpS16 (GeneID 36570) [DRSC07152], the entry reads infection score, replicate 1 = 8.6; cell count, replicate 1 = 6136.
For Rabex-5 (GeneID 38144) [DRSC08628], the entry reads infection score, replicate 1 = 17.7; cell count, replicate 1 = 5012.
Knock-down of Rabex-5 (GeneID 38144) [DRSC29819] gave: infection score, replicate 1 = 7.56; cell count, replicate 1 = 6215.
Depletion of dpr10 (GeneID 39180) [DRSC09015] came out at: infection score, replicate 1 = 2.6; cell count, replicate 1 = 6110.
After knock-down of dpr10 (GeneID 39180) [DRSC10159], the screen gave infection score, replicate 1 = 4.7; cell count, replicate 1 = 5705.
After knock-down of dpr10 (GeneID 39180) [DRSC10160], the record shows infection score, replicate 1 = 6.62; cell count, replicate 1 = 5905.
CG5897 (GeneID 39346) [DRSC10555] gave infection score, replicate 1 = 1.48; cell count, replicate 1 = 6221.
Silencing of eIF3e (GeneID 39877) [DRSC11199] gave: infection score, replicate 1 = 2.12; cell count, replicate 1 = 3827.

2 entries from above, set out differently:
gene	amplicon	infection score, replicate 1	cell count, replicate 1
Nrt (GeneID 39873)	DRSC11237	2.82	6985
mRpS16 (GeneID 36570)	DRSC07152	8.6	6136
